The values below come from paper PMC5385501.

For at least one entry, the source does not settle the construct or the ends of the probe.

The data set has as its target NikR (UniProt A1YSQ9). Put plainly: DNase I footprinting. Particulars: 150 uM NiSO4, protection from 9.7 nM tetramer; 20 mM Hepes pH 7.85, 50 mM KCl, 0.02% Igepal, 0.1 mM DTT, 10% glycerol, +/-150 uM NiSO4, ~20 fmol probe in 50 ul, 300 ng salmon sperm DNA, room temperature 15 min; recombinant protein; label: 5'-32P (one end); probe letters rebuilt from the primers and the genome; part of a longer molecule.

Consider “CAAAACAAAATTAAGGCATAATCACTCTTTTTAAAATAAAGGTCGCGTAGCTCAGTTGGTAGAGCACTACCTTGACATGGTAGTGGCCGCTGGTTCAAGTCCAGTCGTGGCCACCATTATCACTCCAATTTTAATTCTCATTTTTTTTGCGAGTTTTTGATCTTTATAAATTCTAAAGGGGTATTAAACGCGCTTCTAATAACGCTTTTATAGCGCTTCAAAAATATAACACTAATTCATTTTAAATAATAATTAGTTAATGAACGCTTCTGTTAATCTTAGTAAATCAAAACATTGCTACAATTACATCCAACCTTGATTTCGTTATGTCTTCAAGGAAAAACAC (double strand) [PureA probe (ureA / nrr2 HPnc0260 divergent promoter)]”, for which the binding result was “binds”.

As for “CACGTGCCCCTCAAATTAACATTGAAAACGGGTATTTTAAGTTTTTTAAGAAGCCTTAAGGAGCTTTGAAAAGAATTGCTGTTTTAAAACTTTATTGAGCGTATTTTTAAATAACGATTTACCTTAATCTTGTAATTTGTGAATAAACAAAACATTTACTTATCTTTTTTGTGATATTTGGCTGATTTGTAACAATGCTTTTAATAGGGTTGTGGTATAAATATTCTTATCAAGGTGTGCCAAACATGCCTTGAATCTCCATTTTATGAAAGGATTTGTTATGAGTGGATTGAAAAACATTTAGTTGTGTAGTGGTTTTATGCGGTG (double strand) [PdvnA probe]”, the binding result is “binds”.

Consider “GGCTTACCCCTAAAGATTTAATTCAAAACAAAGAGTGGGATAAGATCACAGAAATTTGCAAGCGGGCGTTAGCTTAAGATAACAAAGAGATCATGGCATTTTGTATTTGCTTAATAACACTATAATAAAATTTTTAATAAGGAGATACATCATGTTAGAAAATGTCAAAAAATCCCTTTTTAGGGTTTTGTGCTTGGGTGCGTTGTGTTTAGGGGGGTTAATGGCAGAGCAAGACCCTAA (double strand) [PhcpC probe]”, for which the binding result is listed as “binds”.
